From article PMC2596486 (PLoS ONE, 2008)

Target: rHA subtype H9 (A/Hong Kong/1073/99) (Influenza A virus A/Hong Kong/1073/99 …, UniProt Q9ICY5, strain)
Test: SPR
Conditions: both partners purified

B1: CR6323 Fab (Fab, V domains shown)
VH: EVQLVESGAEVKKPGSSVKVSCKASGGTFSSYGISWVRQAPGQGLEWMGDIIGMFGSTNYAQNFQGRLTITADESTSTAYMELSSLRSEDTAVYYCARSSGYYPAYLPHWGQGTLVTVSS
VL: not shown
What does the source list for B1?
Kd: 2.1 nM; koff: 0.0027 s⁻¹; kon: 1.3e+06 M⁻¹ s⁻¹
